Anti-infective test results gathered from many reports (values: NIAID ChemDB through PubChem).

Shared fields: growth or infection tests; organism: Candida albicans; endpoint: MIC

Blank or dashed fields: not listed here. Rows are shuffled and stem from different studies.

smiles	strain or isolate	read by	result
CCCCCOc1ccc(-c2ccc(-c3ccc(C(=O)N[C@H]4CCCNC(=O)C5CCN5C(=O)C(C(C)O)NC(=O)C(CCc5ccc(O)cc5)NC(=O)C5C[C@@H](O)CN5C(=O)C(C(C)O)NC4=O)cc3)cc2)cc1	ATCC 10231	-	0.78 µg/mL
C[C@@H](c1ncncc1F)[C@](O)(Cn1cncn1)c1ccc(F)cc1F	60 strains	-	≤0.03 µg/mL
CCOC(=O)c1c(C=O)c2ccccc2n1CC	-	broth dilution	250 µg/mL
COc1cc(O)c2c(c1)C(=O)c1c(cc3c(c1O)-c1c(cc(C)c(C(=O)NC(CO)C(=O)O)c1O)[C@H](OC1OC(C)C(N(C)C)C(OC4OCC(O)C(O)C4O)C1O)[C@H]3O)C2=O	A9540	-	6.3 µg/mL
COc1ccc2c(Cc3ccc(C(C)(C)C)cc3)c3[n+](cc2c1OC)CCc1cc2c(cc1-3)OCO2	ATCC64124	-	3.13 µg/mL
N=C(N)c1ccc2nc(-c3ccc(-c4nc5ccc(C(=N)N)cc5[nH]4)[nH]3)[nH]c2c1	Isolate 2370 fluconazole-resistant	-	0.39 µg/mL
CN(CCCC#CC(C)(C)C)c1cccc2c1CCC(=O)N2	Clinical isolate 4	-	15.6 µg/mL
CNc1ccc(C(=O)CC(O)CCC(C)C2OC(=O)CC(O)CC(=O)CC(O)CC(O)CC(O)CC(O)CC3(O)CC(O)C(C(=O)N4CCN(C)CC4)C(CC(O[C@@H]4O[C@H](C)[C@@H](O)[C@H](NC(=O)CN5CCN(CCO)CC5)[C@@H]4O)/C=C/C=C/C=C/C=C\C=C/C=C/C=C/C2C)O3)cc1	73	-	0.03 µg/mL
Cc1cc(Br)c2ncn([C@H](C)[C@](O)(Cn3cncn3)c3ccc(F)cc3F)c(=O)c2c1	76 strains	-	10 µg/mL
CNc1ccc(C(=O)CC(O)CCC(C)C2OC(=O)CC(O)CC(=O)CC(O)CC(O)CC(O)CC(O)CC3(O)CC(O)C(C(=O)NCCN(C)C)C(CC(O[C@@H]4O[C@H](C)[C@@H](O)[C@H](NC(=O)CN(C)C)[C@@H]4O)/C=C/C=C/C=C/C=C\C=C/C=C/C=C/C2C)O3)cc1	200	-	0.06 µg/mL
CCCCCCCC(O)CC(=O)CCc1ccc(O)c(OC)c1	A1-1	-	750 µg/mL
CCCCCCCOc1ccc(N2CCN(c3ccc(C(=O)N[C@H]4CCCNC(=O)[C@@H]5C[C@H](N)CN5C(=O)[C@H]([C@@H](C)O)NC(=O)[C@H](CCc5ccc(CO)cc5)NC(=O)[C@@H]5CCCN5C(=O)[C@H]([C@@H](C)O)NC4=O)cc3)CC2)cc1	ATCC 38247	-	3.12 µg/mL
CC(C)(O)c1cn(-c2ccc(Cl)cc2)nn1	URM 4388	broth dilution	128 µg/mL
CCCCCOc1ccc(-c2ccc(-c3ccc(C(=O)N[C@H]4CCCNC(=O)[C@@H]5[C@H](N)CCN5C(=O)[C@H]([C@@H](C)O)NC(=O)[C@H](CCc5ccc(O)cc5)NC(=O)[C@@H]5C[C@@H](O)CN5C(=O)[C@H]([C@@H](C)O)NC4=O)cc3)cc2)cc1	ATCC 38247	-	0.39 µg/mL
C[C@@H](NC(=O)c1ccc(Cl)cc1NC=O)[C@](O)(Cn1cncn1)c1ccc(F)cc1F	406 strains	-	≤0.03 µg/mL
CCCCCCCC(=O)N[C@H]1C[C@H]2C(=O)NCCC[C@H](NC(=O)c3ccc(-c4ccc(-c5ccc(OCCCCC)cc5)cc4)cc3)C(=O)N[C@@H]([C@@H](C)O)C(=O)N3C[C@H](O)C[C@H]3C(=O)N[C@@H](CCc3ccc(O)cc3)C(=O)N[C@@H]([C@@H](C)O)C(=O)N2C1	ATCC 62376	-	50 µg/mL
CCCCCOc1ccc(-c2ccc(-c3ccc(C(=O)N[C@H]4CCCNC(=O)C5C[C@H](O)N5C(=O)C(C(C)O)NC(=O)C(CCc5ccc(O)cc5)NC(=O)C5C[C@@H](O)CN5C(=O)C(C(C)O)NC4=O)cc3)cc2)cc1	ATCC 10231	-	0.78 µg/mL
O=[n+]1c(Sc2ccccc2)c(CBr)n([O-])c2ccccc21	Clinical isolate 6	-	15.6 µg/mL
CCCCCOc1ccc(-c2ccc(-c3ccc(C(=O)N[C@H]4CCCNC(=O)[C@@H]5C[C@H](N)CN5C(=O)[C@H](CCCN)NC(=O)C(CCc5ccc(O)cc5)NC(=O)[C@@H]5C[C@@H](O)CN5C(=O)[C@H]([C@@H](C)O)NC4=O)cc3)cc2)cc1	ATCC 38247	-	0.39 µg/mL
CNc1ccc(C(=O)CC(O)CCC(C)C2OC(=O)CC(O)CC(=O)CC(O)CC(O)CC(O)CC(O)CC3(O)CC(O)C(C(=O)N4CCN(CCO)CC4)C(CC(O[C@@H]4O[C@H](C)[C@@H](O)[C@H](NC(=O)CCN5CCCCC5)[C@@H]4O)/C=C/C=C/C=C/C=C\C=C/C=C/C=C/C2C)O3)cc1	73	-	0.015 µg/mL
C[C@H]([C@](O)(Cn1cncn1)c1ccc(F)cc1F)S(C)(=O)=O	76 strains	-	20 µg/mL
C[C@H]1[C@H](O)[C@@H](C)/C=C/C=C/C=C/C=C/C=C/C=C/C=C/[C@H](O[C@@H]2O[C@H](C)[C@@H](O)[C@H](N)[C@@H]2O)C[C@@H]2O[C@](O)(C[C@@H](O)C[C@@H](O)CC[C@H](O)[C@@H](O)C[C@@H](O)CC(=O)O[C@H]1C)C[C@H](O)[C@H]2C(=O)O	C316	-	0.008 µg/mL
N#Cc1c(C(=O)NO)[nH]c2ccccc12	-	broth dilution	250 µg/mL
Cc1ccc2c(c1)c1nnc(N3CCN(C)CC3)nc1n2C	1208E	-	4 µg/mL
CNc1ccc(C(=O)CC(O)CCC(C)C2OC(=O)CC(O)CC(=O)CC(O)CC(O)CC(O)CC(O)CC3(O)CC(O)C(C(=O)NCCN(C)C)C(CC(O[C@@H]4O[C@H](C)[C@@H](O)[C@H](NC(=O)CN5CCN(C)CC5)[C@@H]4O)/C=C/C=C/C=C/C=C\C=C/C=C/C=C/C2C)O3)cc1	200	-	0.06 µg/mL
CCC(C)n1ncn(-c2ccc(N3CCN(c4ccc(OC[C@H]5CO[C@](Cn6cncn6)(c6ccc(Cl)cc6Cl)O5)cc4)CC3)cc2)c1=O	AD	-	2 µg/mL
CCCCCOc1ccc(-c2ccc(-c3ccc(C(=O)N[C@H]4CCCNC(=O)[C@@H]5C[C@H](O)CN5C(=O)[C@H]([C@@H](C)O)NC(=O)[C@H](CCc5ccc(O)cc5)NC(=O)[C@@H]5C[C@@H](O)CN5C(=O)[C@H]([C@@H](C)O)NC4=O)cc3)cc2)cc1	ATCC 62376	-	0.39 µg/mL
Cn1c2ccccc2c2cn[nH]c(=O)c21	-	broth dilution	250 µg/mL
C[C@@H](n1cnc2cc(I)ccc2c1=O)[C@](O)(Cn1cncn1)c1ccc(F)cc1F	76 strains	-	0.07 µg/mL
CCCCCCCCOc1ccc(N2CCN(c3ccc(C(=O)N[C@H]4CCCNC(=O)C5C[C@H](N)CN5C(=O)C(C(C)O)NC(=O)C(OCc5ccncc5)NC(=O)C5CCCN5C(=O)C(C(C)O)NC4=O)cc3)CC2)cc1	ATCC 62376	-	3.12 µg/mL
CCOc1cc2c(cc1F)n([O-])c(C)c(S(=O)(=O)c1ccccc1)[n+]2=O	Clinical isolate 17	-	31.25 µg/mL
CCCCCCCCOc1ccc(N2CCN(c3ccc(C(=O)N[C@H]4CCCNC(=O)C5C[C@H](N)CN5C(=O)C(C(C)O)NC(=O)C(c5ccc(CO)cc5)NC(=O)C5CCCN5C(=O)C(C(C)O)NC4=O)cc3)CC2)cc1	ATCC 10231	-	50 µg/mL
O=c1c2[nH]c3ccccc3c2cnn1-c1ccc(F)cc1	-	broth dilution	250 µg/mL
Cc1c(Sc2ccccc2)[n+](=O)c2cc(Cl)ccc2n1[O-]	Clinical isolate 3	-	62.5 µg/mL
Cn1c2ccccc2c2cnn(-c3ccc(Br)cc3)c(=O)c21	-	broth dilution	250 µg/mL
CCCCCCCCOc1ccc(N2CCN(c3ccc(C(=O)N[C@H]4CCCNC(=O)C5C[C@H](N)CN5C(=O)C(C(C)O)NC(=O)[C@@H](OCc5ccccc5)NC(=O)C5C[C@@H](O)CN5C(=O)C(C(C)O)NC4=O)cc3)CC2)cc1	ATCC CCH442	-	>100 µg/mL
CC(=C/C=C/C(=O)O)/C=C/C=C(\C)C(O)C(C)C(=O)O[C@H]1C[C@H](C)C=C2C=C[C@@]3(C)O[C@@H](O)CC(=O)[C@]3(C)[C@H]21	579A	-	3.12 µg/mL
CCCCCCCCN[C@H]1C[C@H]2C(=O)NCCC[C@H](NC(=O)c3ccc(-c4ccc(-c5ccc(OCCCCC)cc5)cc4)cc3)C(=O)N[C@@H]([C@@H](C)O)C(=O)N3C[C@H](O)C[C@H]3C(=O)N[C@@H](CCc3ccc(O)cc3)C(=O)N[C@@H]([C@@H](C)O)C(=O)N2C1	ATCC 62376	-	6.25 µg/mL
CN[C@@H]1[C@H](O[C@@H]2O[C@H](CO)[C@@H](O)[C@H](S(=O)(=O)O)[C@H]2O)[C@@H](O)[C@H](O[C@H]2c3cc(C)c(C(=O)N[C@H](CO)C(=O)O)c(O)c3-c3c(cc4c(c3O)C(=O)c3cc(OC)cc(O)c3C4=O)[C@@H]2O)O[C@@H]1C	8302-14	-	12.5 µg/mL
CCCCCOc1ccc(-c2ccc(-c3ccc(C(=O)N[C@H]4CCCNC(=O)C5C[C@H](N)N5C(=O)C(C(C)O)NC(=O)C(CCc5ccc(O)cc5)NC(=O)C5C[C@@H](O)CN5C(=O)C(C(C)O)NC4=O)cc3)cc2)cc1	ATCC CCH442	-	0.2 µg/mL
C[C@@H](n1cnc2cc(NN)ccc2c1=O)[C@](O)(Cn1cncn1)c1ccc(F)cc1F	406 strains	-	0.31 µg/mL
CCCCCOc1ccc(-c2ccc(-c3ccc(C(=O)N[C@H]4CCCNC(=O)[C@@H]5C[C@H](N)CN5C(=O)[C@H]([C@@H](C)O)NC(=O)[C@H](CCc5ccc(O)cc5)NC(=O)[C@@H]5C[C@@H](O)CN5C(=O)[C@H]([C@@H](C)O)NC4=O)cc3)cc2)cc1	ATCC 38247	-	0.39 µg/mL

Repeating the final 3 entries:

smiles | strain or isolate | read by | result
CCCCCOc1ccc(-c2ccc(-c3ccc(C(=O)N[C@H]4CCCNC(=O)C5C[C@H](N)N5C(=O)C(C(C)O)NC(=O)C(CCc5ccc(O)cc5)NC(=O)C5C[C@@H](O)CN5C(=O)C(C(C)O)NC4=O)cc3)cc2)cc1 | ATCC CCH442 | - | 0.2 µg/mL
C[C@@H](n1cnc2cc(NN)ccc2c1=O)[C@](O)(Cn1cncn1)c1ccc(F)cc1F | 406 strains | - | 0.31 µg/mL
CCCCCOc1ccc(-c2ccc(-c3ccc(C(=O)N[C@H]4CCCNC(=O)[C@@H]5C[C@H](N)CN5C(=O)[C@H]([C@@H](C)O)NC(=O)[C@H](CCc5ccc(O)cc5)NC(=O)[C@@H]5C[C@@H](O)CN5C(=O)[C@H]([C@@H](C)O)NC4=O)cc3)cc2)cc1 | ATCC 38247 | - | 0.39 µg/mL